Anti-infective test results gathered from many reports (values: NIAID ChemDB through PubChem).

Shared fields: whole-cell or culture tests; agent: HIV-1; cells: MT-4; measure: EC50

Conditions beyond the fields shown may differ between rows. An empty or dashed field is not shown. a–b is a range or a potency band. ECn: concentration that inhibits the pathogen or its effect by n%.

| SMILES | strain or isolate | changes | method | result |
|---|---|---|---|---|
| Cc1cc(C=O)cc(C)c1Oc1ncc(N)c(Nc2ccc(C#N)cc2)n1 | RES056 |  | MTT | 8.4 µM |
| CCCCOc1nc(Cc2ccccc2)cc(=O)[nH]1 | IIIB |  | cytopathic effect / MTT | 28 µM |
| Cc1cc(CF)cc(C(=O)c2c(C(C)C)c(=O)[nH]c(=O)n2Cc2cc(C)nc(C)c2)c1 |  |  | cytopathic effect / MTT | 0.0025 µg/mL |
| CC(=O)Nc1cnc(Oc2c(Br)cc(Br)cc2Br)nc1Nc1ccc(C#N)cc1 | IIIB |  | MTT | 20 µM |
| CC(C)Oc1nc(Cc2ccccc2)cc(=O)[nH]1 | IIIB |  | cytopathic effect / MTT | 26 µM |
| COc1ncnc(NS(=O)(=O)c2ccc(N=C3C(=O)N(CN4CCOCC4)c4ccccc43)cc2)c1OC | LAI |  | cytopathic effect / MTT | >2 µg/mL |
| CC1CCC(C(C)C)/C(=N/NC(=O)Nc2ccc(Cl)cc2)C1 | IIIB |  |  | >28.4 µg/mL |
| Cc1ccc(Cl)c(NC(=S)NNC(=O)Cc2ccccn2)c1 | IIIB |  | cytopathic effect / MTT | >100 µM |
| Cc1ccnc2c1NC(=O)c1cccnc1N2C1CC1 | IIIB |  |  | 0.02 µg/mL |
| Cn1c2ccccc2c2c1cc(C#N)c(=O)n2-c1ccc([N+](=O)[O-])cc1 | C | RT-L100I K103N | cytopathic effect / MTT | 0.08 µM |
| CCOCn1c(Cc2ccccc2)c(C(C)C)c(=O)[nH]c1=O | IIIB |  |  | 0.005 µM |
| C[C@@]1(n2ccc(N)nc2=O)CO[C@@H](CO)O1 |  |  |  | >100 µM |
| N#Cc1ccc(Nc2nc(Oc3c(Br)cc(Br)cc3Br)ncc2N)cc1 | IIIB |  | MTT | 0.05 µM |
| CC1(C)CC=C(c2cn(-c3nccc(C(=O)NC4CCC(N5CC6CCC(C5)O6)CC4)n3)c3ccc(F)c([C@H](OC(C)(C)C)C(=O)O)c23)CC1 | NL4-3 | Y143C | luminescence | 0.0061 µM |
| CCc1c(C(C)c2c(F)cccc2F)nc(SC/C=C/c2ccc([N+](=O)[O-])cc2)[nH]c1=O | NNRTI-resistant | RT-Y181C | cytopathic effect / MTT | >575 µM |
| COc1ncnc(NS(=O)(=O)c2ccc(N=C3C(=O)N(CN4CCNCC4)c4ccccc43)cc2)c1OC | LAI |  | cytopathic effect / MTT | >2 µg/mL |
| CN1c2ccccc2C2C1C=CC(=O)N2c1ccc(-c2noc(=O)n2C)cc1 | LAI |  | cytopathic effect / MTT | 1–32 µM |
| COc1ncnc(NS(=O)(=O)c2ccc(N=C3C(=O)N(CN4CCCC4)c4ccc(C)cc43)cc2)c1OC | LAI |  | cytopathic effect / MTT | >10.1 µg/mL |
| Nc1nc2c(ncn2[C@@H]2C[C@H](O)[C@H](CO)O2)c(=O)[nH]1 |  |  | cytopathic effect / MTT | >100 µM |
| N#Cc1ccc(Nc2nc(Oc3c(Cl)cc(Cl)cc3Cl)ncc2NC(=O)C(F)(F)F)cc1 | RES056 |  | MTT | 24 µM |
| S=c1[nH]nc(Cc2ccccn2)n1-c1cccc(Br)c1 | IIIB |  | cytopathic effect / MTT | >100 µM |
| Cc1cn([C@H]2C=C[C@@H](CO)O2)c(=O)[nH]c1=O | RD 04-RT-210W 215D Recombinant |  | cytopathic effect / MTT | 0.5 µM |
| CCc1c(C(=O)c2cc(Cl)cc(Cl)c2)n(Cc2ccncc2)c(=O)[nH]c1=O |  |  | cytopathic effect / MTT | 0.012 µg/mL |
| COc1ccc(/C=C/CSc2nc(Cc3c(F)cccc3F)c(C)c(=O)[nH]2)cc1 | NNRTI-resistant | RT-Y188L | cytopathic effect / MTT | >393 µM |
| Cc1cc(C)cc(C(=O)c2c(C(C)C)c(=O)[nH]c(=O)n2Cc2ccnc(Cl)c2)c1 |  |  | cytopathic effect / MTT | 0.001 µg/mL |
| N#Cc1ccc(Nc2nc(Oc3c(Cl)cccc3Cl)ncc2NC(=O)C(F)(F)F)cc1 | IIIB |  | MTT | 0.14 µM |
| CC1OC(Oc2c(-c3cc(O)c(O)c(O)c3)oc3cc(O)cc(O)c3c2=O)C(O)C(O)C1O | IIIB |  | p24 / ELISA | 120 µM |
| Cc1nc2sc3c(c2c(Sc2ccccc2)c1C(OC(C)(C)C)C(=O)O)CCCC3 | IIIB |  | MTT | 25.6 µM |
| C=Cc1c(Cc2ccccc2)n(COCC)c(=O)[nH]c1=O | IIIB |  |  | 0.07 µM |
| C=Cc1cc(N(CC)CC)nc(SCc2ccc(OC)cc2)n1 | NNRTI-resistant | RT-K103N | cytopathic effect / MTT | 3.8 µM |
| CCOCn1c(Cc2ccccc2)c(C=O)c(=O)[nH]c1=O | IIIB |  |  | >100 µM |
| COc1ncnc(NS(=O)(=O)c2ccc(N=C3C(=O)N(CN4CCCC4)c4ccccc43)cc2)c1OC | LAI |  | cytopathic effect / MTT | >2 µg/mL |
| Cc1cc(C)cc(Sc2c(C(C)C)c(=O)[nH]c(=O)n2Cc2ccncc2)c1 |  |  | cytopathic effect / MTT | 0.002 µg/mL |
| Cc1ccnc2c1NC(=O)c1cccnc1N2C1CC1 |  | EFV-resistant (K103R V179D P225H) | MTT | 100 µM |
| CCCOc1nc(Cc2ccccc2)c(CC)c(=O)[nH]1 | IIIB |  | cytopathic effect / MTT | 22 µM |
| Cc1cc(C)cc(C(=O)c2c(C(C)C)c(=O)[nH]c(=O)n2Cc2ccnc(C#N)c2)c1 |  |  | cytopathic effect / MTT | 0.0016 µg/mL |
| Cc1cn([C@H]2C[C@H](N=[N+]=[N-])[C@@H](CO)O2)c(=O)[nH]c1=O | IIIB |  | MTT | 0.0028 µM |
| CN1c2ccccc2C2C1C=CC(=O)N2c1ccc(-c2ncon2)cc1 | LAI |  | cytopathic effect / MTT | 1–32 µM |
| C[C@@]1(n2ccc(=O)[nH]c2=O)CO[C@@H](CO)O1 |  |  |  | >100 µM |
| COc1c(O)cc2ccc(=O)oc2c1-c1c(O)ccc2ccc(=O)oc12 |  | A17 (K103N Y181C) | MTT | 8.3 µM |
| COc1ncnc(NS(=O)(=O)c2ccc(N=C3C(=O)Nc4ccccc43)cc2)c1OC | LAI |  | cytopathic effect / MTT | >104 µg/mL |
| Cc1c(Cc2ccccc2)[nH]c(=O)[nH]c1=O | IIIB |  | cytopathic effect / MTT | >200 µM |
| CCc1c(C(=O)c2cc(C)cc(C)c2)n(Cc2cccnc2)c(=O)[nH]c1=O |  |  | cytopathic effect / MTT | 0.012 µg/mL |
| O=C(Cc1ccccn1)NNC(=S)Nc1ccc(Cl)c(Cl)c1 | IIIB |  | cytopathic effect / MTT | >100 µM |
| CN1CCN(CCCN2c3ccccc3C3C2C=C(C#N)C(=O)N3c2ccc([N+](=O)[O-])cc2)CC1 | LAI |  | cytopathic effect / MTT | <1 µM |
| Cc1ccc(NC(=S)N/N=C2\CC(C)CCC2C(C)C)cc1 | IIIB |  |  | >2.6 µg/mL |
| Cc1nc2ccccc2c(-c2cc(F)c3c(c2C)CCCO3)c1[C@H](OC(C)(C)C)C(=O)O | NL4-3 | T97A/Y143R | luminescence | 0.014 µM |
| Cc1cc(C)cc(C(=O)c2c(C(C)C)c(=O)[nH]c(=O)n2Cc2cc(C)nc(C)c2)c1 |  |  | cytopathic effect / MTT | 0.001 µg/mL |
| Cc1cn([C@@]2(C)CO[C@@H](CO)O2)c(=O)[nH]c1=O |  |  |  | >100 µM |
| CC(=O)Nc1cnc(Oc2c(C)cc(C#N)cc2C)nc1Nc1ccc(C#N)cc1 | RES056 |  | MTT | >313 µM |
| COc1ccc(/C=C/CSc2nc(C(C)c3c(Cl)cccc3Cl)c(C)c(=O)[nH]2)cc1 | NNRTI-resistant | RT-Y188L | cytopathic effect / MTT | 126 µM |
| FC(F)(F)c1cccc(Nc2nnc(Cc3ccccn3)s2)c1 | IIIB |  | cytopathic effect / MTT | >70.6 µM |

A second listing of 6 rows from above:

SMILES | strain or isolate | changes | method | result
Nc1nc2c(ncn2[C@@H]2C[C@H](O)[C@H](CO)O2)c(=O)[nH]1 |  |  | cytopathic effect / MTT | >100 µM
COc1ccc(/C=C/CSc2nc(C(C)c3c(Cl)cccc3Cl)c(C)c(=O)[nH]2)cc1 | NNRTI-resistant | RT-Y188L | cytopathic effect / MTT | 126 µM
C[C@@]1(n2ccc(N)nc2=O)CO[C@@H](CO)O1 |  |  |  | >100 µM
Cc1cc(C)cc(C(=O)c2c(C(C)C)c(=O)[nH]c(=O)n2Cc2cc(C)nc(C)c2)c1 |  |  | cytopathic effect / MTT | 0.001 µg/mL
CC(=O)Nc1cnc(Oc2c(Br)cc(Br)cc2Br)nc1Nc1ccc(C#N)cc1 | IIIB |  | MTT | 20 µM
N#Cc1ccc(Nc2nc(Oc3c(Cl)cc(Cl)cc3Cl)ncc2NC(=O)C(F)(F)F)cc1 | RES056 |  | MTT | 24 µM